Drawing on patent US11857560B2, “Pharmaceutical compositions comprising substituted nucleotides and nucleosides for treating viral infections” (priority 2013, dated 2024), this text covers EC50 for eight molecules.

A value given as a limit tells only on which side of the number the result lay.

For this experiment, the system named is HCV Replicon GT-1b. Briefly: microbe, parasite or virus in culture. Conditions: Hepatitis C virus, GT1B, read-out: HCV Replicon Assay EC50 uM.
Consider `C[C@@]1(O)C(O)[C@@H](CO)O[C@H]1n1ccc(=O)[nH]c1=S` (some centres unmarked) [ENUC-01850-1], for which the 50% effective concentration (EC50) was more than 100 µM.

As for `O=c1ccn([C@@H]2O[C@H](CO)C(O)[C@@H]2O)c(=S)[nH]1` (some centres unmarked) [ENUC-01894-2], the EC50 is more than 100 µM.

In the case of `C[C@@]1(O)C(O)[C@@H](CO)O[C@H]1n1ccc(=S)[nH]c1=O` (some centres unmarked) [ENUC-01916-1], the 50% effective concentration (EC50) is more than 100 µM.

For `CC(C)OC(=O)[C@H](C)NP(=O)(OC[C@H]1O[C@@H](n2ccc(=S)[nH]c2=O)[C@](C)(F)C1O)Oc1ccccc1` (some centres unmarked) [ENUC-01943-1], the EC50 is more than 100 µM.

For the molecule `C[C@@]1(F)C(O)[C@@H](CO)O[C@H]1n1ccc(=S)[nH]c1=O` (some centres unmarked) [ENUC-01946-1], the concentration giving a half-maximal response (EC50) was more than 100 µM.

In the case of `C[C@H](NP(=O)(O)OC[C@H]1O[C@@H](n2ccc(=O)[nH]c2=S)[C@](C)(O)C1O)C(=O)O` (some centres unmarked) [ENUC-01997-1], the concentration for a half-maximal effect (EC50) is more than 100 µM.

Take `CC(C)OC(=O)[C@H](C)NP(=O)(OC[C@H]1O[C@@H](n2ccc(=S)[nH]c2=O)[C@@H](O)C1O)Oc1ccccc1` (some centres unmarked) [ENUC-02071-1]: the EC50 was more than 100 µM.

On to `CC(C)OC(=O)[C@H](C)NP(=O)(OC[C@@]1(N=[N+]=[N-])O[C@@H](n2ccc(=S)[nH]c2=O)[C@@H](O)C1O)Oc1ccccc1` (some centres unmarked) [ENUC-02083-1], for which the EC50 is more than 100 µM.
